Experimental data as given in patent publication US8592552B2 (priority 2007, dated 2013).

System: Vero cells
Experiment: Cellular structure integrity (microtubules, mitotic spindle) by confocal microscopy
Assay type: cell-based, African green monkey (Cercopithecus)
Details: tubulin, FIG. 12

SMILES: CSCC[C@H](NC(=O)[C@@H](NC(=O)[C@H](CCC(N)=O)NC(=O)[C@H](CO)NC(=O)[C@H](C)NC(=O)[C@@H](NC(=O)[C@H](CC(N)=O)NC(=O)[C@H](CCC(N)=O)NC(=O)[C@@H](NC(=O)[C@@H](NC(=O)[C@@H](NC(=O)[C@@H](NC(=O)[C@H](CO)NC(=O)CNC(=O)[C@@H]1CCCN1C(=O)[C@H](CCC(=O)O)NC(=O)[C@H](C)NC(=O)[C@@H]1CCCN1C(=O)[C@H](Cc1c[nH]cn1)NC(=O)[C@H](CCCNC(=N)N)NC(=O)[C@H](CCCNC(=N)N)NC(=O)[C@H](CCCNC(=N)N)NC(=O)[C@H](CCCNC(=N)N)NC(=O)[C@H](CCCNC(=N)N)NC(=O)[C@H](CCCNC(=N)N)NC(=O)[C@H](CCCNC(=N)N)NC(=O)[C@@H](N)CCCNC(=N)N)[C@@H](C)O)C(C)C)[C@@H](C)O)[C@@H](C)O)[C@@H](C)O)[C@@H](C)O)C(=O)N[C@@H](CO)C(=O)O
- cells viability and proliferative capacity (mitotic spindle formation): not affected
